We go through eight sequences from paper PMC4959772.

For at least one entry, the source does not settle the construct or the ends of the probe. For part of these data: A weaker result is weaker than the reference pair of the same experiment. At least one verdict was read from the data and is not stated in words by the source.

Series [1] has as its system MBP-GlnR (Streptococcus mutans GS5). The series can be described thus: EMSA. The note with it: EMSA: 20 mM Tris pH 8.0, 5 mM MgCl2, 100 mM KCl, 2 mM DTT, 1 ug BSA, 0.5 ug salmon sperm DNA, 0.025 pmol probe in 20 ul, 4 C, 30 min, 6% polyacrylamide gel, recombinant protein, protein details: N-terminal MBP, label: 3' biotin. Background: Mobility shift assays separate free from complexed probe on a gel.

Series [2] relates to MBP-PmrA (Streptococcus mutans GS5). The series can be described thus: EMSA. The conditions noted are these: 8-512 nM protein, EMSA: 20 mM Tris pH 8.0, 5 mM MgCl2, 100 mM KCl, 2 mM DTT, 1 ug BSA, 0.5 ug salmon sperm DNA, 0.025 pmol probe in 20 ul, 4 C, 30 min, 6% polyacrylamide gel, recombinant protein, protein details: N-terminal MBP, label: 3' biotin.

For the sequence “CTATTTTTATGTTATAAAACATAACATAAAATGCAAGCTT (double strand) [pcitB]”, the binding result in series [1] (8-256 nM protein) and in series [2] (more protein needed than GlnR) was “binds” each time.

As for “CTTTTTTGTTATATGTTATGTTTTTTAACATTTCTATCTA (double strand) [pnrgA-2]”, the binding result in series [1] (8-256 nM protein, nrgA-1 is the major target) is on record as “binds more weakly”.

Regarding “GTATAACAATATAATGTTAGAAAAGCTAACAATAAATTTA (double strand) [pglnQ]”, the binding result in series [1] (8-256 nM protein) and in series [2] (more protein needed than GlnR) was “binds” each time.

For “GTTTAGAGTTTATGTCAGGAAATATGACATATAGGCTTGA (double strand) [pglnR]”, the binding result in series [1] (8-256 nM protein) and in series [2] (more protein needed than GlnR) was “binds” in each case.

“TAAACATTTTATGTAGAAAAACTACATTTATTGTAATATA (double strand) [ppmrA]”: the binding result in series [1] (16-512 nM protein) and in series [2] was “binds” throughout.

On to “TACCTCCCTTTATGTTATATAATATAACATTATTCCTAAA (double strand) [pnrgA-1]”, for which the binding result in series [1] (8-256 nM protein, major nrgA target) is given as “binds”; in series [2] (major nrgA target), “binds”.

For the sequence “TATAGACTGTTATGTAAGGAAATATAACATCTATTATTAA (double strand) [pglnP]”, the binding result in series [1] (8-256 nM protein) and in series [2] (more protein needed than GlnR) was “binds” in each case.

On to “TTAATCTAATGAATGTTATTTTTTATAACATGAAAGAATA (double strand) [pgdhA]”, for which the binding result in series [1] (8-256 nM protein) and in series [2] (more protein needed than GlnR) was “binds” in each case.
